Assay results reported in PMC9591056, “Inhibitors of ApiAP2 protein DNA binding exhibit multistage activity against Plasmodium parasites” (PLOS Pathogens, 2022).
For at least one entry, the source does not settle the construct or the ends of the probe. For some assays here: A negative result means that nothing was seen under these conditions. At least one verdict rests on a figure or table, not on a statement of the authors.

Legend:
Test in all cases: EMSA
[1] = biological target: AP2-EXP AP2 domain (Plasmodium falciparum) (UniProt Q8IKH2); conditions: DMSO vehicle or no compound; EMSA: 10 mM Tris pH 7.5, 50 mM KCl, 1 mM DTT, 6 mM MgCl2, 60 ng/uL poly dIdC, 65 ng BSA; 125 ng AP2-EXP or PbAP2-Sp, 40-150 fmol probe; 15 min protein + compound; recombinant protein; label: 5' biotin on forward strand
[2] = test system: PfSIP2 Domain 1 (Plasmodium falciparum); conditions: EMSA: 10 mM Tris pH 7.5, 50 mM KCl, 1 mM DTT, 6 mM MgCl2, 60 ng/uL poly dIdC, 65 ng BSA; 125 ng AP2-EXP or PbAP2-Sp, 40-150 fmol probe; 15 min protein + compound; recombinant protein; label: 5' biotin on forward strand
[3] = biological target: AP2-I Domain 3 (Plasmodium falciparum) (UniProt Q8IJW6); conditions: EMSA: 10 mM Tris pH 7.5, 50 mM KCl, 1 mM DTT, 6 mM MgCl2, 60 ng/uL poly dIdC, 65 ng BSA, 125 ng AP2-EXP or PbAP2-Sp, 40-150 fmol probe, 15 min protein + compound, recombinant protein, label: 5' biotin on forward strand
[4] = test system: AP2-HS Domain 1 (Plasmodium falciparum); conditions: EMSA: 10 mM Tris pH 7.5, 50 mM KCl, 1 mM DTT, 6 mM MgCl2, 60 ng/uL poly dIdC, 65 ng BSA, 125 ng AP2-EXP or PbAP2-Sp, 40-150 fmol probe, 15 min protein + compound, recombinant protein, label: 5' biotin on forward strand

**Q.** Does “ACTACACACCTAACTATGCATGCATCAATATAGTGGATTA (double strand) [AP2-EXP gel shift probe]” bind [1]?
**A.** binds

**Q.** Does “AGGTGCACCTAGGTGCACCT (double strand) [PfSIP2 gel shift probe]” bind [2]?
**A.** binds

**Q.** What does the source list for “ATTAATTTAATATGTACGCAAGGTGCACACTGGTGCATTAAAAAAAAAATATATATTAAT (double strand) [AP2-I gel shift probe]”?
**A.** binding result ([3]; 300 uM Compound B-2): binds; binding result ([3]; 300 uM Compound B-3): binds; binding result [3]: binds

**Q.** Does “TTTTAAAAAAAAAAAAAAAGCCCCGCGGAAAGGGGCCATTGGATATATATTTAGTATTCC (double strand) [AP2-HS gel shift probe]” bind ([4]; 300 uM Compound B)?
**A.** no binding

**Q.** Does “TTTTAAAAAAAAAAAAAAAGCCCCGCGGAAAGGGGCCATTGGATATATATTTAGTATTCC (double strand) [AP2-HS gel shift probe]” bind ([4]; 300 uM Compound I)?
**A.** no binding

**Q.** Does “TTTTAAAAAAAAAAAAAAAGCCCCGCGGAAAGGGGCCATTGGATATATATTTAGTATTCC (double strand) [AP2-HS gel shift probe]” bind [4]?
**A.** binds
